Measured data: PubChem BioAssay AID1224833 (University of Georgia, 2016)

Test: 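Host factors restraining rotavirus as candidate antiviral genes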 (primary screen)
Cell system: monkey MA104 kidney cells
Reagents: siRNA pool against human genes, 50 nM
Time to read-out: 48 h knock-down before infection; read 24 h after infection
Conditions: infection with rotavirus strain RV3 two days after transfection; infectious dose for this stage not given
Measurement: 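z-score of rotavirus antigen signal per well, from a fluorescent immunoassay, relative to non-targeting control wells on the same plate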
Reading the numbers: z-score vs non-targeting control: higher = more rotavirus replication than with non-targeting control
Call rule: In these data the active calls have z-score vs non-targeting control at about -1 or lower, or at about 1 or higher
Calls: active = z-score beyond 1 either way; inactive = z-score within 1 of zero
The whole screen tested about 12,000 reagents; below is a random part of them. Over the whole deposit, about 5,600 (46%) were called active. 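Active calls cover z-scores past 1 in both directions, so they include lowered as well as raised rotavirus replication.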 A number with no mark means an inactive call.

| gene | z-score vs non-targeting control |
| --- | --- |
| CRYBA2 | -1.63 (active) |
| TRIP11 | -1.78 (active) |
| RCBTB2 | 2.24 (active) |
| KERA | -0.128 |
| KIF6 | -0.854 |
| POLR3H | -0.733 |
| OR13F1 | 0.555 |
| OR9G4 | -1.61 (active) |
| DNAH9 | 0.3 |
| CAB39 | -0.5 |
| HOXC11 | 1.36 (active) |
| GTF3C6 | -0.2 |
| RABIF | -0.158 |
| TTC5 | 1.18 (active) |
| DNAJC3 | -0.298 |
| NRAS | -1.96 (active) |
| FBXW10B | -1.38 (active) |
| BCAR1 | 0.245 |
| ARHGEF17 | 0.836 |
| PHETA1 | 1.36 (active) |
| NTN3 | 1.45 (active) |
| PRR5 | 1.51 (active) |
| ZIC5 | -0.0919 |
| SEMA3D | -1.2 (active) |
| NMU | -2.01 (active) |
| C7orf33 | 0.78 |
| A2ML1 | 0.681 |
| ACSM6 | -0.919 |
| OR13H1 | -1.05 (active) |
| PRSS42P | 1.16 (active) |
| WDR13 | -2.03 (active) |
| HLA-DPA1 | -0.514 |
| TAF12 | 0.512 |
| VN1R4 | -0.731 |
| IFT70A | 1.09 (active) |
| STRN4 | 0.572 |
| ZFHX3 | -1.63 (active) |
| AGBL5 | -0.575 |
| YJU2 | 1.58 (active) |
| ATP5F1A | 2.23 (active) |
| BLOC1S3 | -0.625 |
| RUFY3 | 0.752 |
| ZNF683 | -0.697 |
| CABP4 | 0.631 |
| H4C11 | -1.89 (active) |
| THAP4 | 1.17 (active) |
| BBC3 | -0.903 |
| C21orf91 | -1.51 (active) |
| BCL9L | 1.7 (active) |
| PDZD7 | -0.257 |
| ZNF761 | 1.69 (active) |
| MACO1 | 0.0353 |
| CCNT1 | -1.69 (active) |
| BLID | 1.21 (active) |
| PNPLA6 | 1.26 (active) |
| RBM15B | 0.332 |
| RPA4 | -0.276 |
| RAB2A | -0.911 |
| ADGRV1 | -0.606 |
| ZNF77 | 0.556 |
| MPST | 1.76 (active) |
| PDCD1 | -1.41 (active) |
| SLC36A1 | 1 (active) |
| BCHE | -0.677 |
| HSD11B1L | 2.78 (active) |
| PAX8 | -0.817 |
| WDR44 | -0.553 |
| CFAP206 | 0.046 |
| OR13J1 | -1.19 (active) |
| BCAS3 | -0.209 |
| PAQR3 | -1.01 (active) |
| STIM2 | -1.28 (active) |
| BET1L | -0.346 |
| BBS5 | -1.22 (active) |
| FLAD1 | -1.35 (active) |
| CHIA | -1.89 (active) |
| ZNF681 | -1.1 (active) |
| OR11H1 | -0.802 |
| CLPP | 3.09 (active) |
| CXorf65 | -1.3 (active) |
| ZNF468 | 1.79 (active) |
| METTL17 | 1.17 (active) |
| LRRFIP1 | -0.201 |
| CLIC2 | 1.55 (active) |
| GIMAP7 | 0.535 |
| ZNF267 | 0.702 |
| NEUROG3 | 2.36 (active) |
| ADPRH | 0.971 |
| CEP97 | -0.787 |
| WBP2 | -1.19 (active) |
| GGT7 | 0.828 |
| NAV2 | -0.469 |
| ZNF189 | -0.547 |
| SYPL2 | 0.0718 |
| RCBTB1 | -0.9 |
| ALDH1A2 | -1.32 (active) |
| EMC9 | 0.822 |
| VAX2 | -2.47 (active) |
| YPEL3 | -0.523 |
| OR8U8 | 1.53 (active) |
| MTERF3 | 0.238 |
| ELMO1 | 0.182 |
| TNFSF12 | 0.636 |
| BTBD9 | -0.876 |
| COXFA4L3 | -1.56 (active) |
| PLA2G7 | 0.906 |
| MAGEA9 | 0.921 |
| IFT81 | -1.14 (active) |
| ZNF124 | -0.257 |
| PCDHB1 | 0.694 |

8 entries from above, reformatted:
VN1R4: z-score vs non-targeting control = -0.731
IFT70A: z-score vs non-targeting control = 1.09 (active)
STRN4: z-score vs non-targeting control = 0.572
ZFHX3: z-score vs non-targeting control = -1.63 (active)
AGBL5: z-score vs non-targeting control = -0.575
YJU2: z-score vs non-targeting control = 1.58 (active)
ATP5F1A: z-score vs non-targeting control = 2.23 (active)
BLOC1S3: z-score vs non-targeting control = -0.625
